Measurements: patent US9051591B2, “Bacterium of enterobacteriaceae family producing L-aspartic acid or L-aspartic acid-derived metabolites and a method for producing L-aspartic acid or L-aspartic acid-derived metabolites” (AJINOMOTO CO., INC., priority 2010, dated 2015)

Key:
[1] = substrate: NC(=O)c1ccc[n+]([C@@H]2O[C@H](COP(=O)([O-])OP(=O)(O)OC[C@H]3O[C@@H](n4cnc5c(N)ncnc54)[C@H](O)[C@@H]3O)[C@@H](O)[C@H]2O)c1; test: purified protein, by the assay type; conditions: other: Aspartate oxidative deamination; Michaelis-Menten plots
[2] = substrate: O=C(O)CC(=O)C(=O)O; test: purified protein, by the assay type; conditions: other: Oxaloacetate reductive amination; Michaelis-Menten plots

B1: Ralstonia eutropha ADH-Re (Cupriavidus necator H16) (protein)
chain: MGSSHHHHHHSSGLVPRGSHMLHVSMVGCGAIGRGVMELLKSDPEVVFDVVIVPEHTMDEARDAVTALAPGARVATHLDDQRPDLLVECAGHHALEEHIVPALERGIPCMVVSVGALSEPGMAERLEAAARRGGTQVQLLSGAIGAIDALAAARVGGLDEVIYTGRKPARAWAGTPAEQLFDLDALTEATVIFEGTARDAARLYPKNANVAATVSLAGLGLDRTSVKLLADPHAVENVHHVEARGAFGGFELTMRGKPLAANPKTSALTVFSVVRALGNRAHAVSI
kcat/Km [1]: 11700 M⁻¹ s⁻¹ | Vmax [2]: 117 µmol/min/mg | kcat/Km [2]: 18300 M⁻¹ s⁻¹
